Reference: paper PMC12477077, “Polyclonal antibodies towards abrin and ricin—design and potential application for mass spectrometry-based analysis of human biosamples” (2025)

Columns and labels:
[1] = Stability of peptides in spiked plasma (short-term, benchtop, freeze/thaw, long-term); details: for Benchtop stability (24 h, 22 °C), peak area deviation t0 compared to t1 (CV, %): 24 h at 22 °C; for Freeze/thaw stability (24 h, −20 °C), peak area deviation t0 compared to t1 (CV, %): one freeze and thaw cycle, 24 h at −20 °C
[2] = Processed sample stability (extracts in autosampler); details: extracts (aqueous glycine buffer eluate) of 5 ng/mL spiked plasma, silanized vials in autosampler, 24 h at 20 °C; LC-Orbitrap MS; mean (CV), n = 3
[3] = human pooled blank EDTA plasma spiked 5 ng/mL, protein LoBind tubes, LC-Orbitrap MS, mean (CV), n = 3
[4] = plasma spiked 5 ng/mL, proteases inhibitor coated tubes (BD P100, K2EDTA), LC-Orbitrap MS, mean (CV), n = 3, italic values

For `CC[C@H](C)[C@H](NC(=O)[C@H](CCCCN)NC(=O)[C@H](CO)NC(=O)[C@H](CCCCN)NC(=O)[C@H](CCC(=O)O)NC(=O)[C@@H](NC(=O)[C@@H](NC(=O)[C@H](CO)NC(=O)[C@H](CCCNC(=N)N)NC(=O)[C@@H](NC(=O)[C@H](CC(C)C)NC(=O)[C@H](CC(C)C)NC(=O)[C@@H]1CCCN1C(=O)[C@H](CO)NC(=O)[C@H](CCC(N)=O)NC(=O)[C@H](CC(N)=O)NC(=O)[C@H](C)NC(=O)[C@H](CC(N)=O)NC(=O)[C@@H]1CCCN1C(=O)[C@@H]1CCCN1C(=O)[C@H](CC(N)=O)NC(=O)[C@@H](N)CS)[C@@H](C)CC)[C@@H](C)CC)C(C)C)C(=O)O`, the “Short-term stability (7 h, 4 °C), peak area deviation t0 compared to t1 (CV, %)” value ([1]; blank plasma spiked 5 ng/mL, protein LoBind tubes, 7 h at 4 °C, LC-Orbitrap MS, mean (CV), n = 3) was 66 (15) %, the “Benchtop stability (7 h, 22 °C), peak area deviation t0 compared to t1 (CV, %)” value ([1]; blank plasma spiked 5 ng/mL, protein LoBind tubes, 7 h at 22 °C, LC-Orbitrap MS, mean (CV), n = 3) was 43 (33) % and the “Freeze/thaw stability (7 h, -20 °C), peak area deviation t0 compared to t1 (CV, %)” value ([1]; blank plasma spiked 5 ng/mL, protein LoBind tubes, 7 h at -20 °C, LC-Orbitrap MS, mean (CV), n = 3) was 104 (5.9) %. The “Long-term stability (three weeks, -20 °C), peak area deviation t0 compared to t1 (CV, %)” value ([1]; blank plasma spiked 5 ng/mL, protein LoBind tubes, three weeks at -20 °C, LC-Orbitrap MS, mean (CV), n = 3) was 69 (12) %, the “Benchtop stability (24 h, 22 °C), peak area deviation t0 compared to t1 (CV, %)” value [1, 3] was 27 (7.3) % and the “Freeze/thaw stability (24 h, −20 °C), peak area deviation t0 compared to t1 (CV, %)” value [1, 3] was 82 (4.1) %. The “Short-term stability (24 h, 4 °C), peak area deviation t0 compared to t1 (CV, %)” value ([1]; plasma spiked 5 ng/mL, proteases inhibitor coated tubes (BD P100, K2EDTA), 24 h at 4 °C, LC-Orbitrap MS, mean (CV), n = 3, italic values) was 52 (12) %, the “Benchtop stability (24 h, 22 °C), peak area deviation t0 compared to t1 (CV, %)” value [1, 4] was 20 (23) % and the “Freeze/thaw stability (24 h, −20 °C), peak area deviation t0 compared to t1 (CV, %)” value [1, 4] was 105 (19) %. For the same compound, the “Time plasma containing the peptide can be stored at −20 °C” value ([1]; plasma, proteases inhibitor coated tubes (BD P100), −20 °C, 5 ng/mL) was “at least 24 h” and the “Processed sample stability (24 h, 20 °C), peak area deviation t0 compared to t1 (CV, %)” value [2] was 101 (4.4) %.
